According to patent US20120225093A1, “Abrogating HIV-1 Infection via Drug-Induced Reactivation of Apoptosis” (UNIVERSITY OF MEDICINE AND DENTISTRY OF NEW JERSEY, priority 2010, published 2012):

Key:
IFN-γ = IFN-γ secretion by PBMC cultures (cytometric bead array); assay type: cell-based, human
Description: (§1) Uninfected PBMCs were co-incubated with infected PBMC stock in 24-well microplates at 2 ml/well Medium B, at a 10:1 ratio of uninfected-to-infected cells, and a total cell number of 1×10^6. Cultures were maintained and assayed for 6 consecutive days. CPX or Agent P2 was added at the time of inoculation or 12 hr later. Leaving the cell layer undisturbed, half the medium in each well was replenished every day, with concurrent adjustment of compound concentration. On each day during the 6-day experiments, a set of wells was harvested: the cells were processed for determination of viability and apoptosis, and the cell-free supernatants were stored at −80° C. for p24 and viral RNA measurements. Experiments were performed at least in duplicate and repeated at least twice.
(§2) p24 core antigen in the supernatant was quantified by ELISA (Retrotek HIV-1 p24™; ZeptoMetrix Corp.; Buffalo, N.Y.). HIV-1 RNA copy number in the supernatant was determined with a PCR-based and FDA-approved assay (Amplicor HIV-1 Monitor™; Roche Diagnostics Corp.; Indianapolis, Ind.). IFN-γ and IL-10 in the supernatant were determined by cytometric bead array (Human Th1/Th2 Cytokine Kit II™; BD Biosciences Pharmingen, San Jose, Calif.).
(§3) To further assess the cellular effects of CPX, the secretion of interferon (IFN)-γ and interleukin (IL)-10 was measured. […]

IL-10 = IL-10 secretion by PBMC cultures (cytometric bead array); assay type: cell-based, human
Description: as §1, §2, §3

**Q.** `Cc1cc(C2CCCCC2)n(O)c(=O)c1` [CPX, 6-cyclohexyl-1-hydroxy-4-methylpyridin-2[1H]-one] was tested. Which “initial level of IFN-γ” value (IFN-γ; HIV-exposed CPX-treated cells) did it give?
**A.** The value was 657 pg per 10^6 vital cells.

**Q.** What about the “initial level of IFN-γ” value (IFN-γ; uninfected CPX-treated cells) of the same molecule?
**A.** Its value is 634 pg per 10^6 vital cells.

**Q.** What about the “initial level of IL-10” value (IL-10; HIV-exposed CPX-treated cells) of the same molecule?
**A.** Its value is 34 pg per 10^6 vital cells.

**Q.** And the “initial level of IL-10” value (IL-10; uninfected CPX-treated cells)?
**A.** The value was 40 pg per 10^6 vital cells.
